Assay [1] has as its target Recombinant mouse PrP full length (23-230) (mouse) (UniProt P04925). The assay can be described thus: SPR. The settings on record: bispecific antibody.
Assay [2] addresses Recombinant mouse PrP flexible tail only (23-120) (mouse) (UniProt P04925). The assay can be described thus: SPR. The settings on record: bispecific antibody.

Amino acid sequences for entries named in this document (tags omitted). Residues count along the entry.
UniProt P04925, 23-230: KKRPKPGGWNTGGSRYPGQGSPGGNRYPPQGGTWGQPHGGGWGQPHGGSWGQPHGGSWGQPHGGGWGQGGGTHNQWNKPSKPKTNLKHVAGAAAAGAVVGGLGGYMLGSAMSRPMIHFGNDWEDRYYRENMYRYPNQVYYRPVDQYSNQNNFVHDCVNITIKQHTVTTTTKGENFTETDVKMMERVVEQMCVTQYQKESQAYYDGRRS
UniProt P04925, 23-120: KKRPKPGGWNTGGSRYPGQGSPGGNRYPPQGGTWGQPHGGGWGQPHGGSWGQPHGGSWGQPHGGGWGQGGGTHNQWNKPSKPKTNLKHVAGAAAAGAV

The values that follow come from article PMC6181439.

As usually defined, the Kd is the free concentration of one partner at which half of the binding sites on the other are occupied at equilibrium, for simple one-to-one binding. Usually koff stands for the first-order rate constant of dissociation. Regarding “scPOM-bi, POM1-POM2 bispecific single chain antibody”, in assay [1], the equilibrium dissociation constant (Kd) was determined as 0.8 nM and the koff came out at 6.3e-05 s⁻¹. Also, in assay [2], the Kd came to 10.7 nM and the dissociation rate constant (koff) was 0.00013 s⁻¹.
